Measured values from several laboratories, pooled; numbers as filed in NIAID ChemDB.

Shared fields: whole-cell or culture tests; agent: Mycobacterium tuberculosis

a–b is a range or a potency band. MIC50, MIC90 and the like: level of inhibition, or share of isolates inhibited. ECn: concentration that inhibits the pathogen or its effect by n%. MIC bound comes from a single tested concentration. Percent inhibition refers to the dose given; in toxicity tests it is the harm to the cells. For "inactive" no cut-off is given. Blank or dashed fields: not listed here. Neighbouring rows are from separate reports.

smiles | strain or isolate | mutations | read by | endpoint | tested at | result
CCOC(=O)C1=C(C)N(c2ccccc2)C(C)=C(C(=O)OCC)C1c1ccc(-c2ccc(F)c(Cl)c2)o1 | H37Rv |  | BACTEC / radiometric | inhibition | 6.25 µg/mL | 15%
COc1ccccc1C1CC(c2ccccc2)=NN1C(=S)Nc1ccccc1 | H37Ra |  | MTT | MIC |  | >517 µM
Cc1ccc2oc3ccc([N+](=O)[O-])cc3c(=O)c2c1[N+](=O)[O-] | H37Rv |  |  | inhibition | 4 µg/mL | inactive
CNn1cc(C(=O)O)c(=O)c2cc(F)c(N3CCN(C)CC3)cc21 | 22 strains |  |  | MIC90 |  | 4 µg/mL
Cc1c(C#N)c2nc(N)c3ccccc3n2c1C | H37Rv |  | BACTEC | inhibition | 12.5 µg/mL | -36%
O=C1c2ccccc2C2=Nc3ccccc3SC12O | 18b |  | resazurin | MIC |  | 4 µg/mL
COc1ccc2c(ccc3oc([N+](=O)[O-])cc32)c1 | H37Rv |  | BACTEC | MIC |  | ≤0.1 µg/mL
O=C(O)c1ccc2c(=O)c3ccccc3oc2c1C(=O)O | H37Rv |  |  | inhibition | 16 µg/mL | inactive
Cc1csc(N=Nc2ccc(N(C)C)cc2)[n+]1[O-] | H37Rv |  | resazurin | MIC bound |  | <6.25 µg/mL
NNC(=O)c1ccncc1 | Clinical Isolate 16833 | INH RFP resistant | resazurin | MIC90 |  | >40 µg/mL
Cc1ccc2[nH]c3c(C)c4ccncc4c(C)c3c2c1 | H37Rv |  | resazurin | inhibition | 6.25 µg/mL | 101%
CCOC(=O)C1=C(C)N(c2ccccc2Cl)C(C)=C(C(=O)OCC)C1c1ccc(-c2ccc(F)c(Cl)c2)o1 | H37Rv |  | BACTEC / radiometric | inhibition | 6.25 µg/mL | 23%
Cc1nn(C(=O)c2ccc(Cl)cc2)c2c1C(c1ccco1)SC(N)=N2 | H37Rv |  | BACTEC | MIC bound |  | >12.5 µg/mL
Nc1ncc(F)c2c1ncn2[C@@H]1O[C@H](CO)[C@@H](O)[C@H]1O | SRICK1::ADOK |  |  | MIC |  | 10–100 µg/mL
CCCCCCCCCCCCNC(CCO)C1OC2OC(C)(C)OC2[C@@H]1OCc1ccccc1 | H37Ra |  |  | MIC |  | 3.12 µg/mL
CCOc1ccc(NC(=S)Nc2ccc(OCC(C)C)cc2)cc1 | H37RV #225 |  |  | MIC |  | 7.8 µg/mL
O=S(=O)(c1ccc(Cl)cc1)c1cnc2ccccc2c1N1CCCC1 | Clinical isolate |  | resazurin | MIC |  | 8 µg/mL
CCCCCCCCCCCCCCCCNC(CCO)C1OC2OC(C)(C)OC2[C@@H]1OC | H37Rv |  |  | MIC |  | 6.25 µg/mL
COc1ccc2c(c1)/C(=N/OC(=O)c1ccc(OC)c([N+](=O)[O-])c1)CCC2 | 18b |  | resazurin | MIC |  | 8 µg/mL
Oc1cc(Cl)ccc1Oc1ccc(Cl)cc1Cl | M306 |  |  | MIC |  | 25 µM
O=C(O)c1ccccc1O | 7800 |  |  | inhibition | 80 µM | 6%
CCOC(=O)C1=C(C)N(c2cccc(Cl)c2)C(C)=C(C(=O)OCC)C1c1ccc(-c2ccc(F)c(Cl)c2)o1 | H37Rv |  | BACTEC / radiometric | inhibition | 6.25 µg/mL | 4%
CCCCOc1ccc(NC(=S)Nc2ccc(OCCN(CC)CC)cc2)cc1 | H37RV #301 |  |  | MIC |  | 125 µg/mL
CCOC(=O)C1=C(C)N(c2ccc(C)cc2)C(C)=C(C(=O)OCC)C1c1ccc(-c2ccc(F)c(Cl)c2)o1 | H37Rv |  | BACTEC / radiometric | inhibition | 6.25 µg/mL | 17%
O=[N+]([O-])c1ccc(CN2CC3CN(c4ccc(OC(F)(F)F)cc4)CC3C2)o1 | H37Rv |  | resazurin | MIC90 |  | <0.016 µg/mL
CCOC(=O)/C(N=Nc1ccc(-c2n[nH]c(=S)n2CC)cc1)=C(\C)O | H37Rv |  |  | MIC |  | >12.5 µg/mL
Nc1ccc2[nH]c(=S)sc2c1 | H37Rv |  | BACTEC | inhibition | 12.5 µg/mL | 0%
CC(C)(C)c1ccc(Cn2cnc([N+](=O)[O-])n2)cc1 | DprE1-overexpressing |  | turbidity | inhibition | 62 µM | 90%
NC1(N)ON(c2ccc(C=O)cc2)C(c2ccc([N+](=O)[O-])cc2)S1 | H37Rv |  | resazurin | inhibition | 6.25 µg/mL | 5%
N[C@@H]1CONC1=O | 35 strains |  | agar | inhibition | 30 µg/mL | 100%
COC(=O)C1=C(C)N(c2ccc(F)cc2)C(C)=C(C(=O)OC)C1c1ccc(-c2ccc(F)c(Cl)c2)o1 | H37Rv |  | BACTEC / radiometric | inhibition | 6.25 µg/mL | 63%
Nc1cc(Cl)cc2c1nc(NCCO)c1ccccc12 | H37Rv |  | BACTEC | MIC bound |  | >12.5 µg/mL
CO/N=C(\C(=O)N[C@@H]1C(=O)N2C(C(=O)O)=CCS[C@H]12)c1csc(N)n1 | 26 strains |  |  | MIC90 |  | >64 µg/mL
CC(=O)C1(C)Nc2cccc3cccc(c23)N1 | H37Rv |  | BACTEC | MIC bound |  | >12.8 µg/mL
CCCCCCCCCCCCNC(CCO)C1OC2OC(C)(C)OC2[C@H]1OC | H37Rv |  |  | MIC |  | 12.5 µg/mL
CCC/C(C)=N/NC(=S)SC | H37Rv |  | BACTEC | MIC |  | 1.56 µg/mL
CO[C@H]1/C=C/O[C@@]2(C)Oc3c(C)c(O)c4c(O)c(c(/C=N/N5CCN(C6CCCC6)CC5)c(O)c4c3C2=O)NC(=O)/C(C)=C\C=C\[C@H](C)[C@H](O)[C@@H](C)[C@@H](O)[C@@H](C)[C@H](O)[C@@H]1C | Isolate 900216 drug-susceptible |  |  | MIC |  | 0.125 µg/mL
Cc1cccc(N2C(=O)C(=O)C(c3nc4ccccc4s3)C(=O)C2=O)c1C | H37Rv |  | resazurin | MIC bound |  | >6.25 µg/mL
CC(C)(C)c1cccc(N2CCC3(CCN(Cc4ccc([N+](=O)[O-])o4)CC3)CC2)c1 | H37Rv |  | resazurin | MIC90 |  | <0.016 µg/mL
CC1(C)OC2O[C@H](C(CCO)NC3CC3)C3OC(C)(C)OC3C2O1 | H37Rv |  |  | MIC |  | 50 µg/mL
S=C(Nc1ccccc1)N1N=C(c2ccccc2)CC1c1ccc(Cl)cc1 | H37Ra |  | MTT | MIC |  | 511 µM
N#Cc1ccc(N2CC3CC2CN3Cc2ccc([N+](=O)[O-])o2)cc1 | Clinical Isolate 16833 | INH RFP resistant | resazurin | MIC90 |  | 6.54 µg/mL
O=C(OCC1OC(n2ccn(C3OC(COC(=O)c4ccccc4)C(OC(=O)c4ccccc4)C3OC(=O)c3ccccc3)c2=S)C(OC(=O)c2ccccc2)C1OC(=O)c1ccccc1)c1ccccc1 | H37Rv |  | BACTEC | inhibition | 12.5 µg/mL | 0%
CC(C)(C)c1ccc(N2CCN(Cc3ccc([N+](=O)[O-])o3)CC2)cc1 | Clinical Isolate 16833 | INH RFP resistant | resazurin | MIC90 |  | >32 µg/mL
Nc1nc(F)c(F)c2c1NCN2[C@@H]1O[C@H](CO)[C@@H](O)[C@H]1O | SRICK1::ADOK |  |  | MIC |  | 10–100 µg/mL
COC(=O)c1ccc2oc3c(C(=O)OC)cccc3c(=O)c2c1 | H37Rv |  |  | inhibition | 32 µg/mL | inactive
COc1c(N2CCNC(C)C2)c(F)cc2c(=O)c(C(=O)O)cn(C3CC3)c12 | H37Rv |  |  | MIC |  | 0.1 µg/mL
Cc1cccc(C(N)=Nc2nc(-c3ccccn3)cc3ccccc23)c1 |  |  |  | MBC |  | 0.5 µg/mL
Nc1ncc(Cl)c2c1ncn2[C@@H]1O[C@H](CO)[C@@H](O)[C@H]1O | SRICK1::ADOK |  |  | MIC |  | >100 µg/mL
N[C@@H]1CN(c2c(F)cc3c(=O)c(C(=O)O)cn([C@@H]4C[C@@H]4F)c3c2Cl)CC12CC2 | Clinical strain | Gyrase Asp94His | resazurin | MIC |  | 0.25–0.5 µg/mL
CC1(C)OC2OC(C(CCO)NC3CC3)[C@@H](OCc3ccccc3)C2O1 | H37Rv |  |  | MIC |  | 50 µg/mL
Fc1ccc(Cl)c(-c2noc(-c3ccc4nncn4c3)n2)c1 | 18b |  | resazurin | MIC |  | 8 µg/mL
Cc1c([N+](=O)[O-])cc2c(=O)c3ccccc3oc2c1C | H37Rv |  |  | inhibition | 4 µg/mL | inactive
Cc1[nH]n(CCO)c(=O)c1N=Nc1ccc(-c2n[nH]c(=S)o2)cc1 | H37Rv |  |  | MIC |  | >12.5 µg/mL
O=C(O)c1cc2ccc3c(c2oc1=O)CN(c1ccc(Cl)cc1)CO3 | Clinical isolate |  | resazurin | MIC |  | 16 µg/mL
O=C1CN(Br)C(=O)N1Br | H37Rv |  | BACTEC | MIC bound |  | >12.5 µg/mL
CC(C)(C)c1ccc(N2CCC3(CCN(Cc4ccc([N+](=O)[O-])o4)CC3)CC2)cc1 | H37Rv |  | resazurin | MIC90 |  | <0.016 µg/mL
COc1cc(/C=C2\Oc3c(OC)cccc3C2=O)ccc1O | H37Rv |  | BACTEC | MIC bound |  | >12.5 µg/mL
CCOC(=O)/C(N=Nc1ccc(-c2n[nH]c(=S)n2-c2ccccc2)cc1)=C(\C)O | H37Rv |  |  | inhibition | 12.5 µg/mL | 0%
O=C(O)c1ccc2oc3c(C(=O)O)cc([N+](=O)[O-])cc3c(=O)c2c1 | H37Rv |  |  | inhibition | 16 µg/mL | inactive
CC1=NN(c2cc(S(=O)(=O)O)ccc2Cl)C(=O)C1N=Nc1ccccc1 | H37Rv |  | BACTEC | MIC bound |  | >12.5 µg/mL
CN(C)c1ccc(C2CC(c3ccccc3)=NN2C(=S)Nc2ccccc2)cc1 | H37Ra |  | MTT | MIC |  | >500 µM
O=c1c(S(=O)(=O)c2cccc(F)c2)c[nH]c2ccc(F)cc12 | 18b |  | resazurin | MIC |  | 16 µg/mL
Nc1ccc(C(=O)O)c(O)c1 | 592 strains |  | agar | EC50 |  | <2 µg/mL
CCOC(=O)Cn1c(C(F)(F)F)nc2nc(Cl)c(Cl)nc21 | H37Rv |  | BACTEC | MIC bound |  | >6.25 µg/mL
O=C(c1ccc(O)cc1)N1N=C(c2ccccc2)CC1c1ccccc1Cl | H37Ra |  | visual reading | MBC |  | 532 µM
Cc1[nH]n(CCO)c(=O)c1N=Nc1ccc(C(=O)N/N=C/c2ccc(F)cc2)cc1 | H37Rv |  |  | MIC |  | >12.5 µg/mL
Fc1ccc(CNc2ccc(Cl)nn2)cc1 | 18b |  | resazurin | MIC |  | 8 µg/mL
O=C(O)c1cc([N+](=O)[O-])c2oc3c(C(=O)O)cc([N+](=O)[O-])cc3c(=O)c2c1 | H37Rv |  |  | inhibition | 32 µg/mL | inactive
CO[C@H]1/C=C/O[C@@]2(C)Oc3c(C)c(O)c4c(O)c(c(/C=N/N5CCN(C)CC5)c(O)c4c3C2=O)NC(=O)/C(C)=C\C=C\[C@H](C)[C@H](O)[C@@H](C)[C@@H](O)[C@@H](C)[C@H](OC(C)=O)[C@@H]1C | H37Rv |  |  | MIC |  | 0.06 µg/mL
NNC(=O)c1ccncc1 | 76 |  |  | MIC |  | <0.5 µg/mL
O=C(O)c1ccc2c(=O)c3cc([N+](=O)[O-])ccc3oc2c1C(=O)O | H37Rv |  |  | inhibition | 32 µg/mL | inactive
Cc1[nH]n(CCO)c(=O)c1N=Nc1ccc(-c2n[nH]c(=O)n2-c2ccccc2)cc1 | H37Rv |  |  | MIC |  | >12.5 µg/mL
O=C(c1ccc(O)cc1)N1N=C(c2ccccc2)CC1c1ccc(Cl)cc1Cl | H37Ra |  | MTT | MIC |  | 61 µM
CC(=O)NS(=O)(=O)c1ccc(NC(=O)COC(=O)c2cccc3c(=O)c4ccccc4[nH]c23)cc1 | H37Rv |  | BACTEC | MIC bound |  | >12.5 µg/mL
CCCCCCCCCCCCCCCCNC(CCO)C1OC2OC(C)(C)OC2[C@@H]1OCc1ccccc1 | H37Ra |  |  | MIC |  | 12.5 µg/mL
Br.NCC(=O)NC(CO)C(=O)NCC(=O)Oc1ccc([N+](=O)[O-])cc1 | H37Rv |  | BACTEC | MIC |  | ≥12.8 µg/mL
COC(=O)c1ccc2c(=O)c3ccccc3oc2c1 | H37Rv |  |  | inhibition | 4 µg/mL | inactive
O=C1C(O)=C(c2ccccc2C(=O)O)C(=O)C(O)=C1c1ccccc1C(=O)O | H37Rv |  | BACTEC | inhibition | 12.5 µg/mL | 3%
Clc1ccc(N2CCN(c3ccccc3Cl)CC2)nn1 | Clinical isolate |  | resazurin | MIC |  | 16 µg/mL
CCCCCCCCCCCCCCCCCCNC(CCO)C1OC2OC(C)(C)OC2[C@@H]1OCc1ccccc1 | H37Rv |  |  | MIC |  | 12.5 µg/mL
Cc1ccc(S(=O)(=O)N/N=C2\CC/C(=N\NS(=O)(=O)c3ccc(C)cc3)C3CC=CCC23)cc1 | H37Rv |  | BACTEC | MIC bound |  | >12.5 µg/mL
CC(C)N=c1cc2n(-c3ccc(Cl)cc3)c3ccccc3nc-2cc1Nc1ccc(Cl)cc1 | MDR6 |  | broth dilution / resazurin | MIC |  | 0.25 µg/mL

11 of the rows above, restated:

smiles	strain or isolate	mutations	read by	endpoint	tested at	result
CCCCCCCCCCCCCCCCNC(CCO)C1OC2OC(C)(C)OC2[C@@H]1OC	H37Rv			MIC		6.25 µg/mL
Clc1ccc(N2CCN(c3ccccc3Cl)CC2)nn1	Clinical isolate		resazurin	MIC		16 µg/mL
CC(C)(C)c1cccc(N2CCC3(CCN(Cc4ccc([N+](=O)[O-])o4)CC3)CC2)c1	H37Rv		resazurin	MIC90		<0.016 µg/mL
Cc1cccc(N2C(=O)C(=O)C(c3nc4ccccc4s3)C(=O)C2=O)c1C	H37Rv		resazurin	MIC bound		>6.25 µg/mL
CC(C)(C)c1ccc(N2CCC3(CCN(Cc4ccc([N+](=O)[O-])o4)CC3)CC2)cc1	H37Rv		resazurin	MIC90		<0.016 µg/mL
O=C(O)c1ccc2c(=O)c3ccccc3oc2c1C(=O)O	H37Rv			inhibition	16 µg/mL	inactive
CCOC(=O)/C(N=Nc1ccc(-c2n[nH]c(=S)n2CC)cc1)=C(\C)O	H37Rv			MIC		>12.5 µg/mL
CCC/C(C)=N/NC(=S)SC	H37Rv		BACTEC	MIC		1.56 µg/mL
CCCCCCCCCCCCCCCCNC(CCO)C1OC2OC(C)(C)OC2[C@@H]1OCc1ccccc1	H37Ra			MIC		12.5 µg/mL
Br.NCC(=O)NC(CO)C(=O)NCC(=O)Oc1ccc([N+](=O)[O-])cc1	H37Rv		BACTEC	MIC		≥12.8 µg/mL
COc1cc(/C=C2\Oc3c(OC)cccc3C2=O)ccc1O	H37Rv		BACTEC	MIC bound		>12.5 µg/mL